Results of unrelated studies side by side (data: NIAID ChemDB).

Shared fields: tests in culture; species: Mycobacterium tuberculosis

Inhibition is in % at the dose shown (toxicity tests: loss of growth or viability). MIC bound comes from a single tested concentration. Lines come from different laboratories, so protocols vary. A number after MIC or MFC names an inhibition level or a share of isolates. ECn: concentration that inhibits the pathogen or its effect by n%. Blank or dashed fields: not listed here.

compound	endpoint	tested at	method	cells	strain	result
NNC(=O)c1ccncc1	MIC				H37Rv	<0.2 µg/mL
Cl.N=C(N)SCc1ccccc1	MIC				H37Rv	25 µg/mL
CCOC(=O)Nc1cc(NCC(=O)CNc2ccc(C(=O)OCC)cc2)c([N+](=O)[O-])c(N)n1	EC50				H37Rv	>12.5 µg/mL
CO[C@H]1/C=C/O[C@@]2(C)Oc3c(C)c(O)c4c(O)c(c(/C=N/N5CCN(C)CC5)c(O)c4c3C2=O)NC(=O)/C(C)=C\C=C\[C@H](C)[C@H](O)[C@@H](C)[C@@H](O)[C@@H](C)[C@H](OC(C)=O)[C@@H]1C	MIC				5S	1 µg/mL
CC(=O)n1cc(/C=C2\N=C(c3ccccc3)OC2=O)c2ccccc21	MIC				H37Rv	>100 µg/mL
C1=C(CCNCCNCCCc2ccccc2)CCCC1	MIC					12.5 µM
CCOC(=O)Nc1cc2ncc(C(=O)N(C)c3ccccc3)nc2c(N)n1	EC50				H37Rv	>12.5 µg/mL
Cc1c(N)cccc1[N+](=O)[O-]	MIC				H37Rv	100 µg/mL
CCOC(=O)Nc1cc(Nc2ccc(Cl)cc2)c2ncc(C)nc2n1	EC50				H37Rv	>12.5 µg/mL
CC[C@@H](CO)NCCN[C@@H](CC)CO	MIC		broth dilution / resazurin		MDR23	128 µg/mL
C[C@@H]1[C@H]2C[C@@H](C[C@H]1NCCNCCC(c1ccccc1)c1ccccc1)C2(C)C	MIC					12.5 µM
CC(=O)NC[C@H]1CN(c2ccc(N3CCOCC3)c(F)c2)C(=O)O1	MIC		resazurin		Clinical isolate BRF 27	0.5 µg/mL
COc1c(N2CCNC(C)C2)c(F)cc2c(=O)c(C(=O)O)cn(C3CC3)c12	MIC				Strain 448	0.125 µg/mL
Cc1ccc(O)c2c1C(=O)c1ccccc1C2=O	MIC				H37Rv	50 µg/mL
CC[C@H]1OC(=O)[C@H](C)[C@@H](O[C@H]2C[C@@](C)(OC)[C@@H](O)[C@H](C)O2)[C@H](C)[C@@H](O[C@@H]2O[C@H](C)C[C@H](N(C)C)[C@H]2O)[C@](C)(OC)C[C@@H](C)C(=O)[C@H](C)[C@@H](O)[C@]1(C)O	MIC				98596	>4 µg/mL
CCCCCCSc1nc(Cl)nc2nc[nH]c12	inhibition	6.25 µg/mL			H37Rv	0%
CC1CN(c2cc3c(cc2F)c(=O)c(C(=O)O)cn3-c2ccc(F)cc2F)CCN1	MBC				H37Rv	4 µg/mL
O=C(O)c1cccnc1C(=O)O	MIC				H37Rv	>100 µg/mL
CCOC(=O)Nc1cc(N[C@@H](C)[C@H](C)c2ccccc2)c([N+](=O)[O-])c(N)n1	inhibition	12.5 µg/mL			H37Rv	12%
Nc1cccc(S(=O)(=O)NCCO)c1	MIC				H37Rv	>100 µg/mL
CC[C@H]1OC(=O)[C@H](C)[C@@H](O[C@H]2C[C@@](C)(OC)[C@@H](O)[C@H](C)O2)[C@H](C)[C@@H](O[C@@H]2O[C@H](C)C[C@H](N(C)C)[C@H]2O)[C@](C)(O)C[C@@H](C)C(=O)[C@H](C)[C@@H](O)[C@]1(C)O	MIC				ATCC 35830	>8 µg/mL
O=C(/C=N/O)Nc1ccccc1	MIC				H37Rv	>100 µg/mL
Nc1cccc2c1C(=O)c1cccc3snc-2c13	inhibition	12.5 µg/mL	BACTEC		H37Rv	53%
c1ccc(CSc2ncccn2)cc1	MIC90				H37Rv	>6.25 µg/mL
CN[C@@H]1[C@H](O[C@H]2[C@H](O[C@H]3[C@H](O)[C@@H](O)[C@H](N=C(N)N)[C@@H](O)[C@@H]3N=C(N)N)O[C@@H](C)[C@]2(O)C=O)O[C@@H](CO)[C@H](O)[C@H]1O	MIC				Isolate 7	16 µg/mL
NNC(=O)c1ccccc1SSc1ccccc1C(=O)NN	MIC bound		BACTEC		H37Rv	>12.5 µg/mL
CC(=O)Oc1ccc(NCC(=O)O)cc1	MIC				H37Rv	>100 µg/mL
CO[C@H]1/C=C/O[C@@]2(C)Oc3c(C)c(O)c4c(O)c(c(/C=N/N5CCN(C)CC5)c(O)c4c3C2=O)NC(=O)/C(C)=C\C=C\[C@H](C)[C@H](O)[C@@H](C)[C@@H](O)[C@@H](C)[C@H](OC(C)=O)[C@@H]1C	MIC				PR326	≤0.02 µg/mL
CCCCC(CC)CN1CN(CC(CC)CCCC)CC(C)(NCCN[C@H](CO)Cc2ccccc2)C1	MIC					25 µM
O=C(Nc1ccc(NC(=O)c2ccncc2)cc1)c1ccncc1	inhibition	6.25 µg/mL	resazurin		H37Rv	30%
Fc1ccc(CNCCN(CCc2ccccc2)Cc2ccccc2)cc1	MIC					50 µM
CCN(CCO)CCNc1ccc(C)c2sc3cc(Cl)ccc3c(=O)c12	MIC bound		BACTEC		H37Rv	≤12.5 µg/mL
CC(CNCCNC(C)(C)CC(C)(C)C)c1ccccc1	MIC					50 µM
O=C1C[C@@H](c2ccc(O)cc2)Oc2cc(O)cc(O)c21	inhibition	128 µg/mL	BACTEC		H37Rv	86%
NC1CCN(c2c(F)cc3c(=O)c(C(=O)O)cn(C4CC4)c3c2Cl)C1	MBC				ATCC 35830	0.125 µg/mL
COc1ccc2c(c1)OC(c1ccc(Cl)cc1)CC2=O	EC50					>12.5 µg/mL
O=C1C(=O)c2ccc(S(=O)(=O)O)cc2-c2ccccc21.[K+]	MIC				H37Rv	>100 µg/mL
O=C(O)C1Oc2ccccc2C1c1ccccc1	inhibition	12.5 µg/mL	BACTEC		H37Rv	12%
COc1ccc(CSc2ncnc3nc[nH]c23)cc1	MIC90				H37Rv	>6.25 µg/mL
CCN(CC)c1cccc(OCCN2C(=O)c3ccccc3C2=O)c1	MIC				H37Rv	>100 µg/mL
CC(=O)OCC1OC(OC2=C(c3ccccc3)C(=O)C(OC3OC(COC(C)=O)C(OC(C)=O)C(OC(C)=O)C3OC(C)=O)=C(c3ccccc3)C2=O)C(OC(C)=O)C(OC(C)=O)C1OC(C)=O	MIC bound		BACTEC		H37Rv	>12.5 µg/mL
CC[C@H]1OC(=O)[C@H](C)[C@@H](O[C@H]2C[C@@](C)(OC)[C@@H](O)[C@H](C)O2)[C@H](C)[C@@H](O[C@@H]2O[C@H](C)C[C@H](N(C)C)[C@H]2O)[C@](C)(O)C[C@@H](C)CN(C)[C@H](C)[C@@H](O)[C@]1(C)O	MIC				H37Rv	>8 µg/mL
O=C(/C=C/c1ccc([O-])c(C[O-])c1)c1cccc(O)c1	inhibition	12.5 µg/mL			H37Rv	53%
Ic1ccc2oc3ccccc3c2c1	MIC				H37Rv	>100 µg/mL
NCC[C@H](O)C(=O)N[C@@H]1C[C@H](N)[C@@H](O[C@H]2O[C@H](CN)[C@@H](O)[C@H](O)[C@H]2O)[C@H](O)[C@H]1O[C@H]1O[C@H](CO)[C@@H](O)[C@H](N)[C@H]1O	MIC				H37Rv	2.5 µg/mL
COc1ccc(/C=C/C(=O)c2c(O)cccc2OC)cc1	EC50					<12.5 µg/mL
Cc1ccc(CSc2ncccn2)cc1	MIC				H37Ra	>12.8 µg/mL
COC(=O)C1(NC(=O)[C@H](CC(=O)OCc2ccccc2)NC(=O)OCc2ccccc2)CCCCCCC1	inhibition	6.25 µg/mL	resazurin		H37Rv	7%
CN[C@@H]1[C@H](O[C@H]2[C@H](O[C@H]3[C@H](O)[C@@H](O)[C@H](N=C(N)N)[C@@H](O)[C@@H]3N=C(N)N)O[C@@H](C)[C@]2(O)C=O)O[C@@H](CO)[C@H](O)[C@H]1O	MIC				TN2793	>2 µg/mL
C[C@@H]1C(=O)OCC2=CCN3CC[C@@H](OC(=O)[C@@H](C)[C@@]1(C)O)[C@@H]23	MIC		BACTEC		H37Rv	≥12.8 µg/mL
O=c1nc(SCc2cccc3ccccc23)c2[nH]cnc2[nH]1	MIC90				H37Rv	>6.25 µg/mL
CCCCC(CC)CN1CN(CC(CC)CCCC)CC(C)(NCCNCCc2ccccc2)C1	MIC					6.25 µM
C[C@H]1COc2c(N3CCN(C)CC3)c(F)cc3c(=O)c(C(=O)O)cn1c23	MIC				Strain 325	0.25 µg/mL
COc1ccc(N)c2c1oc1ccccc12	MIC				H37Rv	>100 µg/mL
CCOC(=O)Nc1cc2nc(-c3ccccc3)c(-c3ccccc3)nc2c(N)n1	EC50				H37Rv	<12.5 µg/mL
C[C@@H]1CN(c2c(F)c(N)c3c(=O)c(C(=O)O)cn(C4CC4)c3c2F)C[C@H](C)N1	MIC				Isolate 4	1 µg/mL
NC(CCC(=O)OCc1ccccc1)C(=O)NC(CCC(=O)OCc1ccccc1)C(=O)O	MIC bound		BACTEC		H37Rv	>12.5 µg/mL
CC(=O)Oc1ccc(C(=O)O)c(OC(C)=O)c1	MIC				H37Rv	>100 µg/mL
COc1ccc(OC)c(Sc2nc(Cl)nc3nc[nH]c23)c1.O	MIC90				H37Rv	>6.25 µg/mL
Nc1ccc2nc(-c3ccccc3)sc2c1	MIC				H37Rv	>100 µg/mL
Cc1cccc(CSc2ccccn2)c1	inhibition	6.25 µg/mL			H37Rv	0%
C[C@]12CC/C(=N/NC(=O)c3ccncc3)C[C@@H]1CC[C@@H]1[C@@H]2CC[C@]2(C)[C@@H](O)CC[C@@H]12	inhibition	6.25 µg/mL	resazurin		H37Rv	98%
CC(=O)Oc1ccc([C@@H]2CC(=O)c3c(cc(OC(C)=O)c(-c4c(OC(C)=O)cc(OC(C)=O)c5c4O[C@H](c4ccc(OC(C)=O)cc4)CC5=O)c3OC(C)=O)O2)cc1	EC50					>12.5 µg/mL
Cc1cc(NC(=O)c2ccc(N)cc2)ccc1N=Nc1ccc2cc(S(=O)(=O)O)cc(S(=O)(=O)O)c2c1	MIC bound		BACTEC		H37Rv	>12.5 µg/mL
O=C(O)c1ccccc1C(=O)c1cc(Br)ccc1O	MIC				H37Rv	25 µg/mL
Br.O=C(O)CNCCN1CC(=O)N(c2ccccc2)C1=S	MIC bound		BACTEC		H37Rv	>12.5 µg/mL
CC(C)c1ccc2c(c1)CC[C@H]1[C@](C)(CNCCNCc3ccc(C(F)(F)F)cc3)CCC[C@]21C	MIC					25 µM
O=c1c(Br)cc2nc3ccccc3sc-2c1Br	inhibition	12.5 µg/mL	BACTEC		H37Rv	71%
CN(C)c1cccc(O)c1	MIC				H37Rv	12.5 µg/mL
NNC(=O)c1ccncc1	MIC				Isolate 10	2 µg/mL
COC(=O)c1cccc2c1=CC1=C3N=c4cc(OC)ccc4=C3CCN1C=2.O=S(=O)(O)O	inhibition	12.5 µg/mL	BACTEC		H37Rv	-3%
C[C@H]1COc2c(N3CCN(C)CC3)c(F)cc3c(=O)c(C(=O)O)cn1c23	MBC				ATCC 35822	1 µg/mL
CCCCN1CCCC1	MIC				H37Rv	>100 µg/mL
O=C1CCCN1CCCNCCNCCc1ccccc1F	MIC					50 µM
Cc1cc(Oc2ccccc2)c2c(ccc3nc(C)cc(Oc4ccccc4)c32)n1	inhibition	12.5 µg/mL	BACTEC		H37Rv	60%
CCN(CC)Cc1cc(Nc2c3ccc(Cl)cc3nc3ccc(OC)cc23)ccc1O	MIC				H37Rv	>100 µg/mL
COC(=O)C1=CO[C@@H](C)[C@H]2C[n+]3ccc4c([nH]c5ccccc54)c3C[C@H]12	inhibition	128 µg/mL	BACTEC		H37Rv	87%
O=[As]([O-])(O)c1ccc(NCCCO)cc1.[Na+]	MIC				H37Rv	>100 µg/mL
O=c1cc(-c2cccs2)ss1	MIC		BACTEC		H37Rv	12.5 µg/mL
Cc1cccc(C)c1Sc1nc(Cl)nc2nc[nH]c12	MIC				H37Ra	>12.8 µg/mL
C=CCCCCn1c2ccccc2c2c(C)c3c[n+](C)ccc3c(C)c21	MIC		resazurin	VERO	H37Rv	1.56 µg/mL
COCC(O)CO	MIC				H37Rv	>100 µg/mL
Brc1ccc2c(ccc3c2nnc2ncnn23)c1	MIC		resazurin		H37Rv	6.25 µg/mL
CO[C@H]1/C=C/O[C@@]2(C)Oc3c(C)c(O)c4c(O)c(c5c(c4c3C2=O)NC2(CCN(CC(C)C)CC2)N=5)=NC(=O)/C(C)=C\C=C\[C@H](C)[C@H](O)[C@@H](C)[C@@H](O)[C@@H](C)[C@H](OC(C)=O)[C@@H]1C	MIC				Strain 69	0.03 µg/mL

Repeating the first 5 entries:

compound,endpoint,tested at,method,cells,strain,result
NNC(=O)c1ccncc1,MIC,,,,H37Rv,<0.2 µg/mL
Cl.N=C(N)SCc1ccccc1,MIC,,,,H37Rv,25 µg/mL
CCOC(=O)Nc1cc(NCC(=O)CNc2ccc(C(=O)OCC)cc2)c([N+](=O)[O-])c(N)n1,EC50,,,,H37Rv,>12.5 µg/mL
CO[C@H]1/C=C/O[C@@]2(C)Oc3c(C)c(O)c4c(O)c(c(/C=N/N5CCN(C)CC5)c(O)c4c3C2=O)NC(=O)/C(C)=C\C=C\[C@H](C)[C@H](O)[C@@H](C)[C@@H](O)[C@@H](C)[C@H](OC(C)=O)[C@@H]1C,MIC,,,,5S,1 µg/mL
CC(=O)n1cc(/C=C2\N=C(c3ccccc3)OC2=O)c2ccccc21,MIC,,,,H37Rv,>100 µg/mL